Anti-infective test results gathered from many reports (values: NIAID ChemDB through PubChem).

All rows: whole-cell or culture tests; species: Mycobacterium fortuitum; read-out: MIC

An empty or dashed field is not shown. Conditions beyond the fields shown may differ between rows.

smiles	strain or isolate	method	setting	value
C[C@@H]([C@H](NC(=O)[C@H](Cc1ccc2ccccc2c1)NC(=O)N[C@@H](Cc1c[nH]c2ccccc12)C(=O)NCC(C)(C)C)C(=O)NC[C@H]1C[C@@H](O)[C@H](n2ccc(=O)[nH]c2=O)O1)N(C)C(=O)CN	PN	resazurin / fluorescence		1.6 µM
CCn1cc(C(=O)O)c(=O)c2ccc(-c3csc(NC(C)=O)n3)cc21				1.6 µg/mL
CO[C@@]1(NC(=O)CCCC(N)C(=O)O)C(=O)N2C(C(=O)O)=C(COC(C)=O)CSC21	1047			>100 µg/mL
NC[C@@H]1O[C@H](O[C@H]2[C@@H](O)[C@H](O[C@@H]3[C@@H](O)[C@H](N)C[C@H](N)[C@H]3O[C@H]3O[C@H](CN)[C@@H](O)[C@H](O)[C@H]3N)O[C@@H]2CO)[C@H](N)[C@@H](O)[C@@H]1O	ATCC 6841			16 µg/mL
CCOC(=O)/C(N=Nc1ccc(C(=O)N/N=C\c2ccc(F)cc2)cc1)=C(\C)O	ATCC 6841			64 µg/mL
CO[C@@]1(NC(=O)C2SC(=C(C(N)=O)C(=O)[O-])S2)C(=O)N2C(C(=O)[O-])=C(CSc3nnnn3C)CS[C@@H]21	1048			50 µg/mL
CSc1nc(N)c2c(n1)NC(c1ccccc1)CC(c1ccc3c(c1)OCO3)=N2	MNT1073	MTT / broth dilution / absorbance	clinical isolate	>32 µg/mL
CCn1cc(C(=O)O)c(=O)c2cc(F)c(C3CSCN3C)cc21				>100 µg/mL
CO[C@@]1(NC(=O)Cc2ccccc2)C(=O)N2C(C(=O)[O-])=C(CSc3nnc(C)s3)CSC21	1260			25 µg/mL
C[C@@H]([C@H](NC(=O)[C@H](CC1CCCCC1)NC(=O)N[C@@H](Cc1c[nH]c2ccccc12)C(=O)NCC(C)(C)C)C(=O)NC[C@H]1C[C@@H](O)[C@H](n2ccc(=O)[nH]c2=O)O1)N(C)C(=O)CN	rA17	resazurin / fluorescence		1.408 µM
COc1cc(/C=N/N=C(\N)c2ccccn2)cc(OC)c1				256 µg/mL
Nc1nc(N)c2c(n1)NC(c1ccc3c(c1)OCO3)CC(c1ccc(Cl)cc1)=N2	MNT1073	MTT / broth dilution / absorbance	clinical isolate	>32 µg/mL
NCC[C@H](O)C(=O)N[C@@H]1C[C@H](N)[C@@H](O[C@H]2O[C@H](CN)[C@@H](O)[C@H](O)[C@H]2O)[C@H](O)[C@H]1O[C@H]1O[C@H](CO)[C@@H](O)[C@H](N)[C@H]1O	ATCC 6841			8 µg/mL
N/C(=N/N=C/c1ccccc1Cl)c1ccccn1				128 µg/mL
CCOC(=O)/C(N=Nc1ccc(-c2n[nH]c(=O)n2-c2ccccc2)cc1)=C(\C)O	ATCC 6841			32 µg/mL
CCn1cc(C(=O)O)c(=O)c2ccc(-c3csc(N)n3)cc21				3.12 µg/mL
C[C@@H](O)[C@H]1C(=O)N2C(C(=O)O)=C(SCCN=CN)C[C@H]12	1059			12.5 µg/mL
CSc1nc(N)c2c(n1)NC(c1ccc(C(F)(F)F)cc1)CC(c1ccc3c(c1)OCO3)=N2	MNT1073	MTT / broth dilution / absorbance	clinical isolate	>32 µg/mL
CO[C@@]1(NC(=O)C(C(=O)O)c2ccc(O)cc2)C(=O)N2C(C(=O)O)=C(CSc3nnnn3C)CO[C@@H]21	1261			25 µg/mL
C=CCn1c(-c2ccc(N=N/C(C(=O)OCC)=C(/C)O)cc2)n[nH]c1=S	ATCC 6841			128 µg/mL
Cc1ccc(/C=N/N=C(/N)c2ccccn2)cc1				256 µg/mL
CCn1cc(C(=O)O)c(=O)c2ccc(-c3csc(N(C)C)n3)cc21				12.5 µg/mL
N/C(=N\N=C\c1ccc(Cl)c(Cl)c1)c1ccccn1				256 µg/mL
CC(C)N=c1cc2n(-c3ccc(Cl)cc3)c3ccccc3nc-2cc1Nc1ccc(Cl)cc1	6841 ATCC			13.3 µg/mL
CCn1cc(C(=O)O)c(=O)c2cc(F)c(-c3csc(N(C)C)n3)cc21				12.5 µg/mL
COc1cc(/C=N/N=C(\N)c2ccccn2)cc(OC)c1OC				256 µg/mL
Nc1ccc(-c2n[nH]c(=O)n2-c2ccccc2)cc1	ATCC 6841			64 µg/mL
NC[C@H]1O[C@H](O[C@H]2[C@H](O)[C@@H](O[C@H]3O[C@H](CO)[C@@H](O)[C@H](N)[C@H]3O)[C@H](N)C[C@@H]2N)[C@H](N)C[C@@H]1O	ATCC 6841			64 µg/mL
COc1ccc(C2=Nc3c(N)nc(N)nc3NC(c3ccc4c(c3)OCO4)C2)cc1	MNT1073	MTT / broth dilution / absorbance	clinical isolate	>32 µg/mL

Repeating the first 2 entries:

smiles	strain or isolate	method	setting	value
C[C@@H]([C@H](NC(=O)[C@H](Cc1ccc2ccccc2c1)NC(=O)N[C@@H](Cc1c[nH]c2ccccc12)C(=O)NCC(C)(C)C)C(=O)NC[C@H]1C[C@@H](O)[C@H](n2ccc(=O)[nH]c2=O)O1)N(C)C(=O)CN	PN	resazurin / fluorescence		1.6 µM
CCn1cc(C(=O)O)c(=O)c2ccc(-c3csc(NC(C)=O)n3)cc21				1.6 µg/mL